Pooled drug test results. Numbers come from NIAID ChemDB, via PubChem.

Shared fields: whole-cell or culture tests; organism: Mycobacterium tuberculosis

Percent inhibition refers to the dose given; in toxicity tests it is the harm to the cells.

SMILES	conditions	read by	mutations	endpoint	dose	strain or isolate	value
CN[C@@H]1[C@@H](O)[C@@H](O[C@@H]2[C@@H](O)[C@H](O[C@H]3O[C@H](CN)CC[C@H]3N)[C@@H](N)C[C@H]2N)OC[C@]1(C)O				MIC		9449/2007	1.05 µM
CCN(CC)CCSC(CC(=O)c1ccc(Cl)cc1)c1ccc(N(C)C)cc1.Cl				MIC		H37Rv	>100 µg/mL
C=C[C@H]1[C@H](OC2OC(CO)C(O)C(O)C2O)OC=C(C(=O)OC)[C@H]1C[C@H]1CC(=O)C[C@H](CCc2ccc(O)cc2)O1		BACTEC		MIC bound		H37Rv	>12.5 µg/mL
N/C(=N\N=C\c1ccc(Br)cc1)c1ccncc1				MIC		1481	64 µg/mL
OCC(O)C(O)C(O)C(O)/C=N/O				MIC		H37Rv	>100 µg/mL
CC1=C(C(=O)Nc2cc(C)ccc2C)C(c2ccc(O)cc2)C(C(=O)Nc2cc(C)ccc2C)=C(C)N1				MIC		H37Rv	>6.25 µg/mL
CC(C)[C@](O)(C(=O)OCC1=CCN2CC[C@@H](O)[C@@H]12)[C@H](C)O		BACTEC		MIC bound		H37Rv	>12.5 µg/mL
O=[N+]([O-])c1cn2c(n1)OC[C@@H](OCc1ccc(OCc3ccccc3)cc1)C2				MIC		H37Rv-T2-3547 (PA-824-resistant)	0.2 µM
O=C1c2ccccc2C(=O)c2c1ccc(Br)c2Br				MIC		H37Rv	>100 µg/mL
O=C(N/N=C/c1ccc(Oc2ccc(Cl)cc2Cl)cc1)c1nc2ccc([N+](=O)[O-])cc2[nH]1		resazurin		MIC		H37Rv	6.25 µg/mL
COC(=O)C1CC(c2ccccc2)Nc2cc(C)ccc21				MIC		H37Rv	>100 µg/mL
C=C(NC(=O)c1csc(-c2nc3c(cc2O)-c2nc(cs2)C(=O)N[C@@H]([C@@H](C)O)C(=O)N/C(=C(\C)OC)c2nc(cs2)C(=O)N[C@@H]2c4nc(cs4)C(=O)N[C@@H](COC(=O)c4c5c6c(cccc6n4O)COC(=O)[C@@H](O[C@H]4C[C@](C)(O)[C@H](N(C)C)[C@H](C)O4)[C@H]2OC5)c2nc-3cs2)n1)C(N)=O		broth dilution	Multidrug-resistant	MIC		Clinical isolate 565	2.5–25 µM
O=[N+]([O-])Cc1cnc2nncn2n1		BACTEC		MIC		H37Rv	12.5 µg/mL
N/C(=N\N=C\c1ccccc1O)SCc1ccc(Br)cc1	14 d	broth dilution		MIC		H37Rv	16 µM
Nc1ccc(C(=O)C(=O)c2ccc(N)cc2)cc1				MIC		H37Rv	100 µg/mL
Cc1ccc(/C=N/N=C(\N)c2ccncc2)cc1				MIC		1342	16 µg/mL
COc1cc2c(cc1OC)C1c3cc(OC)c(OC)cc3CC(=O)N1CC2		BACTEC		MIC		H37Rv	12.5 µg/mL
Cc1ccc(Cn2nnc(-c3cc([N+](=O)[O-])cc([N+](=O)[O-])c3)n2)cc1	21 d			MIC		Praha 131	0.125 µM
O=C(c1ccccc1)c1ccc2nc(C(=O)N/N=C/c3ccc(Oc4ccc(Cl)cc4Cl)cc3)[nH]c2c1		resazurin		MIC		H37Rv	12.5 µg/mL
CC(C)[C@H]1CC[C@@](C)(C(=O)O)C1				MIC		H37Rv	>100 µg/mL
N/C(=N\N=C\c1ccc([N+](=O)[O-])cc1)c1ccncc1				MIC		1342	>256 µg/mL
CC[C@@H](CO)NCCN[C@@H](CC)CO				MIC		N128	16 µg/mL
O=C1C=CC(=O)C=C1				MIC		H37Rv	100 µg/mL
CC1=CC(=O)c2c(O)cccc2C1=O				MIC		MTCS2	39.06 µg/mL
CCNCc1cccc(OC)c1OC.Cl				MIC		H37Rv	>100 µg/mL
CN[C@@H]1[C@H](O[C@H]2[C@H](O[C@H]3[C@H](O)[C@@H](O)[C@H](N=C(N)N)[C@@H](O)[C@@H]3N=C(N)N)O[C@@H](C)[C@]2(O)C=O)O[C@@H](CO)[C@H](O)[C@H]1O				MIC		9449/2007	>27.5 µM
COC(=O)C1=C(C)N(c2ccc(OC)cc2)C(C)=C(C(=O)OC)C1c1ccc(Cl)cc1				MIC		H37Rv	>6.25 µg/mL
O=C(N/N=C/c1ccc(Oc2cc(Cl)cc(Cl)c2)cc1)c1nc2ccccc2[nH]1		resazurin		MIC		H37Rv	25 µg/mL
CCCCCC1(C)Cn2cc([N+](=O)[O-])nc2O1				MIC		H37Rv	0.1 µM
COc1cc(/C=N/N=C(\N)c2ccncc2)cc(OC)c1OC				MIC		1481	256 µg/mL
N/C(=N\N=C\c1ccccc1)SCc1ccccc1	14 d	broth dilution		MIC		H37Rv	62.5 µM
COc1cccc(/C=N/N=C(\N)c2ccncc2)c1OC				MIC		1342	256 µg/mL
S=C1SCN(c2ccccc2)CN1c1ccccc1		BACTEC		inhibition	12.5 µg/mL	H37Rv	39%
O=C(O)c1cc(=O)c2ccc3ccccc3c2[nH]1				MIC		H37Rv	>100 µg/mL
Cc1ccn2nc(S(=O)(=O)Nc3c(Br)ccc4cccnc34)nc2n1		visual reading	INH RIF resistant	MIC50		M23	0.5 µM
CO[C@H]1/C=C/O[C@@]2(C)Oc3c(C)c(O)c4c(O)c(c(/C=N/N5CCN(C)CC5)c(O)c4c3C2=O)NC(=O)/C(C)=C\C=C\[C@H](C)[C@H](O)[C@@H](C)[C@@H](O)[C@@H](C)[C@H](OC(C)=O)[C@@H]1C		broth dilution	Rifampicin- and isoniazid-resistant	MIC		Clinical isolate 10525	>10 µM
Cc1ccc2nc(C(=O)N/N=C/c3ccc(Oc4ccc(Cl)c(C)c4)cc3)[nH]c2c1		resazurin		MIC		H37Rv	1.5 µg/mL
CSC(=S)NNC(C)c1nccc2ccccc12				MIC		EMB-R	6.4 µg/mL
NC1CCCCC1				MIC		H37Rv	>100 µg/mL
O=C(N/N=C/c1ccc(Oc2cccc3ccccc23)cc1)c1nc2ccc(Cl)cc2[nH]1		resazurin		MIC		H37Rv	12.5 µg/mL
CC1=C(C(=O)Nc2cccc([N+](=O)[O-])c2)C(c2cccc(Br)c2)C(C(=O)Nc2cccc([N+](=O)[O-])c2)=C(C)N1				MIC		H37Rv	>6.25 µg/mL
CC1CC2Oc3ccc(Cl)cc3C(=O)N2O1		resazurin		MIC bound		H37Rv	>6.25 µg/mL
Nc1ccc(Sc2ccc(Cl)cc2)c(N)c1				MIC		H37Rv	25 µg/mL
CC1=C(C(=O)Nc2ccc(F)cc2)C(c2ccccc2Cl)C(C(=O)Nc2ccc(F)cc2)=C(C)N1				MIC		H37Rv	>6.25 µg/mL
Clc1ccc(/C=C/c2ccc3ccccc3n2)cc1				MIC		H37Rv	>100 µg/mL
NNC(=O)c1ccncc1		broth dilution	Rifampicin- and isoniazid-resistant	MIC		Clinical isolate 10975	>10 µM
CC(C)(C)n1nc(C2CC2)c(Br)c1NC(=O)c1ccc(Cl)cc1		BACTEC		inhibition	12.5 µg/mL	H37Rv	86.99%
COc1cccc(CS/C(N)=N/N=C/c2cc(Cl)ccc2O)c1	14 d	broth dilution		MIC		H37Rv	32 µM
N/C(=N\N=C\c1cccc(F)c1)c1ccncc1				MIC		H37Rv	128 µg/mL
Cc1ccc(CS/C(N)=N/N=C/c2ccccc2O)cc1	14 d	broth dilution		MIC		H37Rv	32 µM
Cc1c(N=Nc2cccc(Cl)c2Cl)c(-c2ccccc2)nn1C(=S)S		BACTEC		MIC bound		H37Rv	≤128 µg/mL
N/C(=N\N=C\c1ccccc1)SCc1cccc(Cl)c1	14 d	broth dilution		MIC		H37Rv	32 µM
O=C(c1cc2ccccc2o1)N1CCN(Cc2ccccc2)CC1		BACTEC		inhibition	12.5 µg/mL	H37Rv	75%
CO/C(C)=C1/NC(=O)[C@H]([C@@H](C)O)NC(=O)c2csc(n2)-c2cc(O)c(-c3nc(C(=O)NCCCN4CCOCC4)cs3)nc2-c2csc(n2)[C@@H]2COC(=O)c3c4c5c(cccc5n3O)COC(=O)[C@@H](O[C@H]3C[C@](C)(O)[C@H](N(C)C)[C@H](C)O3)[C@@H](OC4)[C@H](NC(=O)c3csc1n3)c1nc(cs1)C(=O)N2		broth dilution		MIC		Clinical isolate 12850	≤2.5 µM
CC(C)(C)NCc1cc(C(C)(C)C)cc(-c2ccc(Cl)cc2)c1O		BACTEC		MIC bound		H37Rv	≤12.5 µg/mL
N/C(=N\N=C\c1cc(Br)ccc1O)SCc1cccc(Cl)c1	21 d	broth dilution		MIC		H37Rv	32 µM
NNC(=O)c1ccncc1		resazurin		MIC		H37Rv	0.4 µg/mL
Cl.c1ccc(NCCCCN2CCCCC2)nc1				MIC		H37Rv	>100 µg/mL
COc1ccc2[nH]c3c(C)c4ccncc4c(C)c3c2c1		BACTEC		MIC bound		H37Rv	≤12.8 µg/mL
N/C(=N\N=C\c1ccccc1O)SCc1ccc(Cl)cc1	14 d	broth dilution		MIC		H37Rv	8 µM
CCCc1cc(=O)oc2c3c(c4c(c12)OC(C)(C)CC4)O[C@@H](C)[C@H](C)[C@H]3O		BACTEC		MIC		H37Rv	6.25 µg/mL
COc1ncc(F)c2nc(S(=O)(=O)Nc3ncccc3C(C)=O)nn12		visual reading	INH RIF resistant	MIC50		P887	0.5 µM
COc1cc(-c2ccc(N=Nc3ccc(N)nc3N)c(OC)c2)ccc1N=Nc1ccc(N)nc1N		BACTEC		MIC		H37Rv	≥12.5 µg/mL
COC(=O)C1=C(C)N(c2ccc(Cl)cc2)C(C)=C(C(=O)OC)C1c1ccc(Cl)cc1				MIC		H37Rv	>6.25 µg/mL
O=C1c2ccccc2C(=O)C1(O)O				MIC		H37Rv	>100 µg/mL
C1COCCN1.S=C(S)N1CCOCC1		BACTEC		MIC		H37Rv	≥12.5 µg/mL
O=Cc1ccccc1O				MIC		H37Rv	100 µg/mL
CC1(C)C2CCC1(C)C1(C2)OC(CCl)CS1		BACTEC		MIC bound		H37Rv	>12.5 µg/mL
Cc1ccc(C(=O)O)cc1-n1c(-c2ccc(Cl)cc2)nnc1-c1ccc(Cl)cc1				MIC		H37Rv	>100 µg/mL
C=CCSS/C=C/CS(=O)CC=C				MIC		CS-R	12.5 µg/mL
O=C(O)Cc1ccccc1				MIC		H37Rv	>100 µg/mL
CC(C)=CCCC(C)C1=C(O)C(=O)C(C)=CC1=O		BACTEC		inhibition	128 µg/mL	H37Rv	100%
Cc1ccc2cccnc2c1				MIC		H37Rv	100 µg/mL
CO/C(C)=C1/NC(=O)[C@H]([C@@H](C)O)NC(=O)c2csc(n2)-c2cc(O)c(-c3nc(C(=O)NC(C)c4nc(-c5ccccn5)ns4)cs3)nc2-c2csc(n2)[C@@H]2COC(=O)c3c4c5c(cccc5n3O)COC(=O)[C@@H](O[C@H]3C[C@](C)(O)[C@H](N(C)C)[C@H](C)O3)[C@@H](OC4)[C@H](NC(=O)c3csc1n3)c1nc(cs1)C(=O)N2		broth dilution		MIC		Clinical Isolate 913	≤10 µM
C=CCSC(=S)Nc1nc2ccc(C)cc2s1		BACTEC		MIC		H37Rv	64 µg/mL
CC1=C(C(=O)Nc2ccc([N+](=O)[O-])cc2)C(c2ccccc2)C(C(=O)Nc2ccc([N+](=O)[O-])cc2)=C(C)N1				MIC		H37Rv	>12.5 µg/mL
CO[C@H]1/C=C/O[C@@]2(C)Oc3c(C)c(O)c4c(O)c(c5c(c4c3C2=O)NC2(CCN(CC(C)C)CC2)N=5)=NC(=O)/C(C)=C\C=C\[C@H](C)[C@H](O)[C@@H](C)[C@@H](O)[C@@H](C)[C@H](OC(C)=O)[C@@H]1C				MIC		Strain 4 (STR-resistant)	0.006 µg/mL
O=C1/C(=C2\Sc3ccc4ccccc4c3C2=O)Sc2ccc3ccccc3c21				MIC		H37Rv	>100 µg/mL
Nc1ccc2nnnn2n1		BACTEC		inhibition	12.5 µg/mL	H37Rv	0%
N#Cc1ccc(/C=N/N=C(\N)c2ccncc2)cc1				MIC		1481	>256 µg/mL
O=c1ccc2cc(Cl)ccc2o1				MIC		H37Rv	>100 µg/mL

For reference, 8 entries again:

{"SMILES": "Cc1ccc2cccnc2c1", "endpoint": "MIC", "strain or isolate": "H37Rv", "value": "100 µg/mL"}
{"SMILES": "CC1=C(C(=O)Nc2ccc(F)cc2)C(c2ccccc2Cl)C(C(=O)Nc2ccc(F)cc2)=C(C)N1", "endpoint": "MIC", "strain or isolate": "H37Rv", "value": ">6.25 µg/mL"}
{"SMILES": "CCN(CC)CCSC(CC(=O)c1ccc(Cl)cc1)c1ccc(N(C)C)cc1.Cl", "endpoint": "MIC", "strain or isolate": "H37Rv", "value": ">100 µg/mL"}
{"SMILES": "C=CCSC(=S)Nc1nc2ccc(C)cc2s1", "read by": "BACTEC", "endpoint": "MIC", "strain or isolate": "H37Rv", "value": "64 µg/mL"}
{"SMILES": "S=C1SCN(c2ccccc2)CN1c1ccccc1", "read by": "BACTEC", "endpoint": "inhibition", "dose": "12.5 µg/mL", "strain or isolate": "H37Rv", "value": "39%"}
{"SMILES": "CO/C(C)=C1/NC(=O)[C@H]([C@@H](C)O)NC(=O)c2csc(n2)-c2cc(O)c(-c3nc(C(=O)NCCCN4CCOCC4)cs3)nc2-c2csc(n2)[C@@H]2COC(=O)c3c4c5c(cccc5n3O)COC(=O)[C@@H](O[C@H]3C[C@](C)(O)[C@H](N(C)C)[C@H](C)O3)[C@@H](OC4)[C@H](NC(=O)c3csc1n3)c1nc(cs1)C(=O)N2", "read by": "broth dilution", "endpoint": "MIC", "strain or isolate": "Clinical isolate 12850", "value": "≤2.5 µM"}
{"SMILES": "O=C(N/N=C/c1ccc(Oc2ccc(Cl)cc2Cl)cc1)c1nc2ccc([N+](=O)[O-])cc2[nH]1", "read by": "resazurin", "endpoint": "MIC", "strain or isolate": "H37Rv", "value": "6.25 µg/mL"}
{"SMILES": "O=C1C=CC(=O)C=C1", "endpoint": "MIC", "strain or isolate": "H37Rv", "value": "100 µg/mL"}

MIC bound comes from a single tested concentration. An empty or dashed field is not shown. Two numbers with a dash give a range or band. Neighbouring rows are from separate reports. MIC50, MIC90 and the like: level of inhibition, or share of isolates inhibited.